This series concerns PMA-differentiated THP-1 cells. In words: Confocal microscopy of labeled CPP uptake. The class given is cell-based. Particulars: 1 μM peptide, 37 °C, 30 minutes, trypsin to strip surface-bound CPP, fluorescence 488 nm. On the procedure: Approximately 4 × 10^5 THP-1 cells were plated in 35 mm MatTek cover dishes in media containing 10 nM PMA to induce adherence and differentiation. After 48 h the media was changed to RPMI/FBS without PMA. Thirty minutes before adding the labeled-CPPs, cell media were replaced with low serum (1% FBS) RPMI. THP-1 cells were treated with CPP for 30 minutes at 37 °C, washed twice with phosphate buffered saline (PBS) in 10% FBS, and incubated with 0.05% trypsin for 10 minutes to digest any surface-bound CPPs. Cells were washed twice with PBS/FBS and then incubated for 20 minutes in Hank’s Buffered Salt Solution (HBSS) with 1X diluted WGA-633 cell membrane stain (Life Technologies). […] Cells were imaged using a Leica SP8 Confocal Microscope and collected fluorescence data from 405 nm (DAPI stained cell nuclei), 488 nm (internalized labeled-CPP signal), and 633 nm (WGA-633 stained plasma membrane) channels as a series of Z-stacks. Analysis of cells with red and green fluorescence was conducted using Image J. The perimeter of each cell was circled using the red stain as a guide. Subsequently, mean intensity of green fluorescence contained in each cell was measured. For each condition, three random fields of view were analyzed. For control, R57 and S57, a total of 146, 81 and 119 cells were analyzed.

Take “DAEFRHDSGY [CPP-control, control peptide of the same length derived from human β-amyloid, same fluorescent label, reference compound]”: the “internalization of labeled peptide (confocal microscopy)” value is recorded as “background levels of uptake”.
